# Data source: PubChem BioAssay AID1224833 (University of Georgia, 2016)
# Screen: 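Host factors restraining rotavirus as candidate antiviral genes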 (primary screen)
# System: monkey MA104 kidney cells
# Knock-down reagent: siRNA pool against human genes, 50 nM
# Time to read-out: 48 h knock-down before infection; read 24 h after infection
# Conditions: infection with rotavirus strain RV3 two days after transfection; infectious dose for this stage not given
# Measured: 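z-score of rotavirus antigen signal per well, from a fluorescent immunoassay, relative to non-targeting control wells on the same plate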
# Scale: z-score vs non-targeting control: higher = more rotavirus replication than with non-targeting control
# Active means: In these data the active calls have z-score vs non-targeting control at about -1 or lower, or at about 1 or higher
# Calls: active = z-score beyond 1 either way; inactive = z-score within 1 of zero
# The deposit covers about 12,000 reagents; this is an unselected part. Over the whole deposit, about 5,600 (46%) are marked active. 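Active calls cover z-scores past 1 in both directions, so they include lowered as well as raised rotavirus replication.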
target,z-score vs non-targeting control,call
SLC10A5,-1.05,active
OMP,-0.0853,inactive
POLR2K,0.863,inactive
OR6C6,-1.52,active
PLEKHF2,0.932,inactive
ZNF697,0.749,inactive
CLSPN,-2.87,active
FTO,-0.92,inactive
CHMP3,-1.54,active
PEF1,-0.328,inactive
DEFB106B,0.434,inactive
WNK1,-2.21,active
DEFB107B,-1.68,active
NOX4,-1.08,active
MYORG,-0.487,inactive

Continued; the last 4 above are carried over.
target,z-score vs non-targeting control,call
WNK1,-2.21,active
DEFB107B,-1.68,active
NOX4,-1.08,active
MYORG,-0.487,inactive
TXLNG,0.0643,inactive
EPCAM,-0.228,inactive
OR5H15,0.461,inactive
ADH7,-0.561,inactive
TPH2,-0.513,inactive
IFNB1,-1.01,active
NPHP1,0.175,inactive
OSBPL7,-0.117,inactive
CD99L2,0.851,inactive
EHMT1,-0.541,inactive
EML4,-0.231,inactive
SH3TC2,2.78,active
NXPH3,-0.298,inactive
PDE6G,0.568,inactive
ZUP1,-0.366,inactive
COX6B2,-0.732,inactive
ARHGAP24,-2.18,active
ZNF385B,0.49,inactive
TFDP1,-1.9,active
NELL2,-0.725,inactive
EEPD1,-0.693,inactive
OR1L8,0.274,inactive
NINJ1,0.133,inactive
FCRL5,-0.784,inactive
FILIP1,0.787,inactive
CLEC4A,0.669,inactive
VSNL1,-1.37,active
DNAI1,-1.01,active
CDA,-2.89,active
H2BC8,-0.715,inactive
